Numbering of substitutions follows the chain as printed.
B1: FI6 variant 2 (antibody, V domains shown)
VH: QVQLVQSGGGVVQPGRSLRLSCVASGFTFSTYAMHWVRQAPGRGLEWVAVISYDGNYKYYADSVKGRFSISRDNSNNTLHLEMNTLRTEDTALYYCAKDSQLRSLLYFEWLSQGYFDPWGQGTLVTVTS
VL: DIQMTQSPDSLAVSLGARATINCKSSQSVTFNYKNYLAWYQQKPGQPPKVLIYWASARESGVPDRFSGSGSGTDFTLTISSLQAEDVAVYYCQQHYRTPPTFGQGTKVEIK
B2: FI6 variant 3 (antibody, V domains shown)
VH: QVQLVESGGGVVQPGRSLRLSCAASGFTFSTYAMHWVRQAPGKGLEWVAVISYDANYKYYADSVKGRFTISRDNSKNTLYLQMNSLRAEDTAVYYCAKDSQLRSLLYFEWLSQGYFDYWGQGTLVTVSS
VL: B1 VL with Q3V, A17E, V50L, A57T

Target: HA of H7N7 A/Netherlands/219/03 (influenza A virus H7N7 …)
Assay: ELISA on recombinant or purified HA

Binder | EC50
B1 | 0.026 µg/mL
B2 | 0.029 µg/mL
